The text below walks through data of US20230130925A1 (priority 2020, published 2023).

In one experiment the test system is Influenza A. Particulars: person, after Tocilizumab; 900 mg intravenously on day 6.
Another experiment relates to SARS-cov2. Particulars: person, deterioration after Tocilizumab; Ravulizumab 3000 mg i.v.

B1: Ecoluzimab: C5 inhibitor; inhibitor of terminal complement 5 (antibody, chains of the INN, looked up)
heavy: QVQLVQSGAEVKKPGASVKVSCKASGYIFSNYWIQWVRQAPGQGLEWMGEILPGSGSTEYTENFKDRVTMTRDTSTSTVYMELSSLRSEDTAVYYCARYFFGSSPNWYFDVWGQGTLVTVSSASTKGPSVFPLAPCSRSTSESTAALGCLVKDYFPEPVTVSWNSGALTSGVHTFPAVLQSSGLYSLSSVVTVPSSNFGTQTYTCNVDHKPSNTKVDKTVERKCCVECPPCPAPPVAGPSVFLFPPKPKDTLMISRTPEVTCVVVDVSQEDPEVQFNWYVDGVEVHNAKTKPREEQFNSTYRVVSVLTVLHQDWLNGKEYKCKVSNKGLPSSIEKTISKAKGQPREPQVYTLPPSQEEMTKNQVSLTCLVKGFYPSDIAVEWESNGQPENNYKTTPPVLDSDGSFFLYSRLTVDKSRWQEGNVFSCSVMHEALHNHYTQKSLSLSLG
light: DIQMTQSPSSLSASVGDRVTITCGASENIYGALNWYQQKPGKAPKLLIYGATNLADGVPSRFSGSGSGTDFTLTISSLQPEDFATYYCQNVLNTPLTFGQGTKVEIKRTVAAPSVFIFPPSDEQLKSGTASVVCLLNNFYPREAKVQWKVDNALQSGNSQESVTEQDSKDSTYSLSSTLTLSKADYEKHKVYACEVTHQGLSSPVTKSFNRGEC
With B1, in the experiment with Influenza A, the mental function result is “gradual improvement in mental function”.

B2: Ravulizumab: C5-Inhibitor (antibody, chains of the INN, looked up)
heavy: QVQLVQSGAEVKKPGASVKVSCKASGHIFSNYWIQWVRQAPGQGLEWMGEILPGSGHTEYTENFKDRVTMTRDTSTSTVYMELSSLRSEDTAVYYCARYFFGSSPNWYFDVWGQGTLVTVSSASTKGPSVFPLAPCSRSTSESTAALGCLVKDYFPEPVTVSWNSGALTSGVHTFPAVLQSSGLYSLSSVVTVPSSNFGTQTYTCNVDHKPSNTKVDKTVERKCCVECPPCPAPPVAGPSVFLFPPKPKDTLMISRTPEVTCVVVDVSQEDPEVQFNWYVDGVEVHNAKTKPREEQFNSTYRVVSVLTVLHQDWLNGKEYKCKVSNKGLPSSIEKTISKAKGQPREPQVYTLPPSQEEMTKNQVSLTCLVKGFYPSDIAVEWESNGQPENNYKTTPPVLDSDGSFFLYSRLTVDKSRWQEGNVFSCSVLHEALHSHYTQKSLSLSLG
light: DIQMTQSPSSLSASVGDRVTITCGASENIYGALNWYQQKPGKAPKLLIYGATNLADGVPSRFSGSGSGTDFTLTISSLQPEDFATYYCQNVLNTPLTFGQGTKVEIKRTVAAPSVFIFPPSDEQLKSGTASVVCLLNNFYPREAKVQWKVDNALQSGNSQESVTEQDSKDSTYSLSSTLTLSKADYEKHKVYACEVTHQGLSSPVTKSFNRGEC
With B2, the mental function entry in the experiment with SARS-cov2 is “gradual improvement in mental function”.
